# Patent publication US20050049242A1 (priority 2000, published 2005)
# Test system: MT-2 cells
# Details: 48 hours
substance,measurement,value
"Di-3,4-dihydrodihydroxybenzylidine succinic acid [Compound 38]","LD5 (5% lethal dose, concentration at which cell growth is inhibited by 5%)",69 µM
